The assay concerns the target biotinylated human ACE2 protein (Cat# AC2-H82E6, ACROBiosystems) (human) (UniProt Q9BYF1). Kind of assay: BLI. The note with it: domain or fragment.

In general, Kd refers to the free concentration of one partner at which half of the binding sites on the other are occupied at equilibrium, for simple one-to-one binding. Low readings indicate tighter binding, high ones weaker binding. Broadly, the koff is a measure of how fast the partners let go of each other.

Substance “SARS-CoV-2 spike receptor-binding domain (RBD, 319-529 aa), His-tagged, synthesized by the conventional wheat germ cell-free system (WG) (from UniProt P0DTC2 319-529)” returned a dissociation constant Kd of 180 nM and a koff of 0.00069 s⁻¹.

“SARS-CoV-2 spike receptor-binding domain (RBD, 319-529 aa), His-tagged, synthesized by the wheat germ cell-free system with ERO1α and PDI (EP-WG) (from UniProt P0DTC2 319-529)” gave a Kd of 26 nM and a koff of 0.0063 s⁻¹.

(Values after article PMC9321213.)
